PubChem BioAssay AID504761 – Drosophila RNAi Screening Center – 2011

Screen: 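Fly genes whose silencing reduces dengue virus type 2 infection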 (primary screen)
Cell system: D.Mel-2 cells from Drosophila
Reagents: long dsRNA against Drosophila genes
Challenge: infection with dengue virus type 2; dose and infection time not stated
Measurement: 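Cells stained for dengue envelope protein and imaged; percent of infected cells per well on duplicate plates, ranked by infection, with stained nuclei counted for cell number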
Reading the numbers: infection score: higher = more virus-infected cells; cell count: higher = more cells in the well
Rule for the call: 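Low infection ranks in the two replicates (chance level up to 0.065) followed by a retest with a 1.5-fold or larger significant decrease, p below 0.05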
Calls: active = confirmed: knock-down lowers infection; inactive = not picked or not confirmed
The screen tested about 22,000 reagents; shown is an unselected part of those that have a named target and a result. Over the whole deposit, 116 (0.52%) were called active. 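Calls depend on retest data that are not deposited; infection was ranked per plate without normalising between plates; the unit of the infection score is not given.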 The raw values are shown without normalisation. Unmarked entries are inactive. Reagents against one gene are numbered here. Names joined by + are all predicted targets of the reagent. Further read-outs or replicates are left out here. The record does not give: the amount of reagent, the time to read-out.

eIF3k (GeneID 37475) #1 | infection score, replicate 1: 12.1; cell count, replicate 1: 6180
eIF3k (GeneID 37475) #2 | infection score, replicate 1: 3.79; cell count, replicate 1: 6961
lcs (GeneID 33120) #1 | infection score, replicate 1: 2.1; cell count, replicate 1: 5466
lcs (GeneID 33120) #2 | infection score, replicate 1: 11.9; cell count, replicate 1: 6173

Targets listed so far whose gene name starts with E or e (2):
eIF3k (GeneID 37475) #1 | infection score, replicate 1: 12.1; cell count, replicate 1: 6180
eIF3k (GeneID 37475) #2 | infection score, replicate 1: 3.79; cell count, replicate 1: 6961

Next records follow.
OdsH (GeneID 32758) | infection score, replicate 1: 1.97; cell count, replicate 1: 6412
uif (GeneID 33983) | cell count, replicate 1: 706
Vha44 (GeneID 36826) #1 | infection score, replicate 1: 3.8; cell count, replicate 1: 6291
Vha44 (GeneID 36826) #2 | infection score, replicate 1: 25.6; cell count, replicate 1: 5745
Vha44 (GeneID 36826) #3 | infection score, replicate 1: 2.75; cell count, replicate 1: 5202
CG42557 + CG42558 #1 | infection score, replicate 1: 8.87; cell count, replicate 1: 6124
CG42557 + CG42558 #2 | infection score, replicate 1: 4.83; cell count, replicate 1: 6206
Ir94c (GeneID 318727) | infection score, replicate 1: 6.12; cell count, replicate 1: 5943
PIG-F (GeneID 40139) #1 | infection score, replicate 1: 6.11; cell count, replicate 1: 6420
PIG-F (GeneID 40139) #2 | infection score, replicate 1: 7.61; cell count, replicate 1: 6060
